## Potato spindle tuber viroid, loop 6: variant abundance in plants

Source: Wu et al. 2024 (doi:10.1371/journal.ppat.1012142), supplementary data.

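A pool of all variants was put on leaves of three Nicotiana benthamiana plants. Samples came from the inoculated region at 5 days, the leaf margin at 10 and upper systemic leaves at 12.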

PSTVd intermediate strain, loop 6: wild type UGACCGCGAG, pool pattern UNNNCGNNNG; upper and lower strand joined, each 5' to 3', the first 5 letters being the upper strand, closing pairs included.

Numbers give reads per thousand; 0 = not seen among the reads, higher = more abundant.
Each value is the mean of three plants.
"Pool" is the share in the plasmid pool used as inoculum, on the same scale.
The inoculated region was read from the minus strand, the other sites from the plus strand.

{"sequence": "UUAGCGGCUG", "pool": "0.209", "inoculated region": 0.0956, "leaf margin": 0.00920, "systemic leaves": 0}
{"sequence": "UACUCAGCGG", "pool": "0.0131", "inoculated region": 0, "leaf margin": 0, "systemic leaves": 0}
{"sequence": "UAACCGAGCG", "pool": "0.105", "inoculated region": 0.584, "leaf margin": 0.102, "systemic leaves": 0}
{"sequence": "UUACCGUACG", "pool": "0.209", "inoculated region": 0.543, "leaf margin": 0.149, "systemic leaves": 0}
{"sequence": "UGCACCCGAG", "pool": "0.0131", "inoculated region": 0, "leaf margin": 0, "systemic leaves": 0}
{"sequence": "UAAGCGGUGG", "pool": "0.327", "inoculated region": 0.0823, "leaf margin": 0, "systemic leaves": 0}
{"sequence": "UGUCCGACUG", "pool": "0.405", "inoculated region": 0.119, "leaf margin": 0.00773, "systemic leaves": 0.00599}
{"sequence": "UUGGCGUUUG", "pool": "0.523", "inoculated region": 0.102, "leaf margin": 0.0232, "systemic leaves": 0}
{"sequence": "UGUUCGGUGG", "pool": "0.301", "inoculated region": 0.119, "leaf margin": 0.00920, "systemic leaves": 0}
{"sequence": "UCGACGUCAG", "pool": "0.157", "inoculated region": 0.142, "leaf margin": 0, "systemic leaves": 0}
{"sequence": "UAGUCGUUUG", "pool": "0.248", "inoculated region": 0.0541, "leaf margin": 0.00773, "systemic leaves": 0}
{"sequence": "UGAACGCACG", "pool": "0.248", "inoculated region": 0.169, "leaf margin": 0.00773, "systemic leaves": 0}
{"sequence": "UCUACGGGAG", "pool": "0.314", "inoculated region": 0.711, "leaf margin": 0.0775, "systemic leaves": 0}
{"sequence": "UCUCCGGUUG", "pool": "0.248", "inoculated region": 0.0293, "leaf margin": 0.00773, "systemic leaves": 0}
{"sequence": "UGACCGUUAG", "pool": "0.863", "inoculated region": 0.432, "leaf margin": 0.462, "systemic leaves": 0.243}
{"sequence": "UCAACGAUUG", "pool": "0.314", "inoculated region": 0.138, "leaf margin": 0, "systemic leaves": 0}
{"sequence": "UUAUCGACUG", "pool": "0.379", "inoculated region": 0.125, "leaf margin": 0, "systemic leaves": 0}
{"sequence": "UAACCGAGUG", "pool": "0.118", "inoculated region": 0.119, "leaf margin": 0, "systemic leaves": 0}
{"sequence": "UACUCGGGUG", "pool": "0.222", "inoculated region": 0.0957, "leaf margin": 0.0169, "systemic leaves": 0}
{"sequence": "UGUGCGUAUG", "pool": "0.353", "inoculated region": 0.0716, "leaf margin": 0.120, "systemic leaves": 0}
{"sequence": "UCACCGCAUG", "pool": "0.0784", "inoculated region": 0.124, "leaf margin": 0.0247, "systemic leaves": 0}
{"sequence": "UUAACGCUCA", "pool": "0.0131", "inoculated region": 0.517, "leaf margin": 0.0951, "systemic leaves": 0}
{"sequence": "UUAGCAAUGG", "pool": "0.0131", "inoculated region": 0, "leaf margin": 0, "systemic leaves": 0}
{"sequence": "UCAGCGUUCG", "pool": "0.157", "inoculated region": 0.0538, "leaf margin": 0.0276, "systemic leaves": 0}
{"sequence": "UCCGCGUCCG", "pool": "0.118", "inoculated region": 0.100, "leaf margin": 0, "systemic leaves": 0}
{"sequence": "UACCCGCAUG", "pool": "0.235", "inoculated region": 0.0835, "leaf margin": 0.00920, "systemic leaves": 0}

A selection of 2 entries from above:

sequence,pool,inoculated region,leaf margin,systemic leaves
UUAUCGACUG,0.379,0.125,0,0
UAACCGAGUG,0.118,0.119,0,0

Samples held 36,220 to 57,551 reads, so the smallest values rest on one or two reads.
Wild type was 20.7 per thousand in the pool and the most common sequence in every sample (inoculated region 195, 198, 203; leaf margin 629, 591, 734; systemic leaves 942, 870, 868).
The authors trace changes outside the varied positions to PCR and sequencing errors or to mutation in the plant; presence does not show that a variant is infectious alone.